Results of unrelated studies side by side (data: NIAID ChemDB).

All rows: whole-cell or culture tests; organism: Herpes simplex virus 1; measure: EC50

ECn is the concentration giving n% inhibition of infection, replication or growth.

structure | strain or isolate | cells | read by | result
Cc1cn([C@@H]2O[C@H](CO)[C@@H](O)[C@@H]2O)c(=O)[nH]c1=O | MP | HELF | cytopathic effect | 0.32 µg/mL
C/C(O)=C1\C(=N)N(COCCO)S(=O)(=O)N=C1N | VMW1837 (TK-) | E6SM | - | >400 µg/mL
Nc1nc(=O)c(/C=C/Br)cn1[C@H]1C[C@H](O)[C@@H](CO)O1 | VMW1837 (TK-) | PRK | cytopathic effect | >400 µg/mL
CC(NC(=S)Nc1ccc(NC(=O)c2ccccc2F)cc1)c1ccc(F)cc1 | Patton | HFF | ELISA | >10 µg/mL
N#Cc1cc(CC(=O)c2ccccc2)c(=O)n2c1sc1ccccc12 | KOS | HEF | plaque count | >40 µg/mL
CN1CCN(Cc2cn([C@H]3C[C@H](O)[C@@H](CO)O3)c(=O)[nH]c2=O)CC1 | KOS | HSF | cytopathic effect | >200 µg/mL
O=C(O)P(=O)(O)O | HU-5 | HEL | cytopathic effect | 584 µM
N#Cc1cc(NC(=O)c2ccccc2)c(=O)n2c1[nH]c1ccccc12 | KOS | HEF | plaque count | >8 µg/mL
O=c1[nH]c(=O)n([C@H]2C[C@H](O)[C@@H](CO)O2)cc1C(F)(F)F | - | Primary rabbit kidney cells | cytopathic effect | 0.66 µM
O=c1[nH]c(=S)n([C@@H]2O[C@H](CO)[C@@H](O)[C@@H]2O)cc1/C=C/c1ccccc1 | A4-3 (TK-) | RPMI8226 | cytopathic effect | >258.7 µM
CC(=O)OCCOCN1C=CC(=O)NS1(=O)=O | F | E6SM | - | >400 µg/mL
O=c1[nH]c(=O)n([C@H]2C[C@H](O)[C@@H](CO)O2)cc1/C=C/Br | KOS | PRK | cytopathic effect | 0.02 µg/mL
O=c1[nH]c(=O)n([C@H]2C[C@H](O)[C@@H](CO)O2)cc1/C=C/Br | HU-3 | HEL | cytopathic effect | 0.042 µM
CCOC(=O)C1=CN(COCCO)S(=O)(=O)NC1=O | KOS | E6SM | - | >400 µg/mL
O=c1[nH]c(=O)n([C@H]2C[C@H](O)[C@@H](CO)O2)cc1Cl | - | Human skin fibroblasts | cytopathic effect | 0.76 µM
CCc1cn([C@H]2C[C@H](O)[C@@H](COP(=O)(O)O)O2)c(=O)[nH]c1=O | KOS | BSC-1 | cytopathic effect | 4.1 µg/mL
[N-]=[N+]=NCc1cn([C@H]2C[C@H](O)[C@@H](CO)O2)c(=O)[nH]c1=O | VEX149 | PRK | cytopathic effect | 2 µg/mL
N#Cc1cn([C@H]2C[C@H](O)[C@@H](CO)O2)c(=O)[nH]c1=O | - | Human skin fibroblasts | cytopathic effect | >700 µM
Nc1nc(=S)n([C@@H]2O[C@H](CO)[C@@H](O)[C@@H]2O)cc1CO | KOS (TK+) | RPMI8226 | cytopathic effect | >253.5 µM
CCCCCCCC/C=C/CCCCCCCC(=O)OCC(CO)OCn1cnc2c(=O)[nH]c(N)nc21 | B2006 (TK-) | HEL | cytopathic effect | >10 µM
CCCc1cn([C@H]2C[C@H](O)[C@@H](CO)O2)c(=S)nc1N | A4-3 (TK-) | RPMI8226 | cytopathic effect | >277.4 µM
CCCc1cn([C@H]2C[C@H](O)[C@@H](COP(=O)(O)O)O2)c(=O)[nH]c1=O | KOS | HSF | cytopathic effect | 4 µg/mL
O=Cc1cn([C@H]2C[C@H](O)[C@@H](CO)O2)c(=O)[nH]c1=O | VDX348 | PRK | cytopathic effect | 1 µg/mL
Nc1nc(=S)n([C@@H]2O[C@H](CO)[C@@H](O)[C@@H]2O)cc1/C=C/Br | KOS (TK+) | RPMI8226 | cytopathic effect | 30.5 µM
Nc1nc2c(ncn2CCC(CO)CO)c(=O)[nH]1 | KT4 | VERO | plaque count | 99 µM
Cc1nn2c(-c3cn(-c4ccccc4)nc3-c3ccccc3)nnc2s1 | KOS (TK-) | HEL | cytopathic effect | >16 µg/mL
O=C(O)/C=C/c1cn([C@@H]2O[C@H](CO)[C@@H](O)[C@@H]2O)c(=S)[nH]c1=O | A4-3 (TK-) | RPMI8226 | cytopathic effect | >238.4 µM
CCCC(=O)N[C@@H](CCC(=O)N[C@@H](CS)C(=O)NCC(=O)O)C(=O)O | McIntyre | Macrophages | plaque count | 2400 µM
Nc1nc2c(ncn2COCCO)c(=O)[nH]1 | E-377 | HFF | plaque count | 0.2 µg/mL
Nn1c(-c2cn(-c3ccccc3)nc2-c2ccccc2)n[nH]c1=S | KOS | HEL | cytopathic effect | >80 µg/mL
Nc1nc2c(ncn2COCCO)c(=O)[nH]1 | M35290 (acyclovir-susceptible) | HFF | cytopathic effect | 0.25 µg/mL
NC1=CC(c2ccccc2)=Nn2c(nnc2-c2cn(-c3ccccc3)nc2-c2ccccc2)S1 | KOS (TK-) | HEL | cytopathic effect | >80 µg/mL
CCc1cn([C@H]2C[C@H](O)[C@@H](CO)O2)c(=S)nc1N | KOS (TK+) | RPMI8226 | cytopathic effect | 0.04 µM
CC[C@@H](N(C)C(=O)[C@@H](NC(=O)[C@@H](CC(=O)[C@@H](NC(=O)[C@H](C(C)C)N(C)C(=O)[C@H](C)[C@@H](C)C1CCCCC1)C(C)(C)C)CC(=O)C(C)(C)C)C1(C(=O)O)CCCC1)C(C)(C)C | - | BHK-21 | ELISA | 0.2 µM
CC1=CC(=O)N(c2ccccc2)S(=O)(=O)N1COCCO | VMW1837 (TK-) | E6SM | - | >400 µg/mL
C[C@@H](c1ccccc1)N(CC(=O)Nc1ccc(-c2csc(N)n2)cc1)C(=O)c1ccncc1 | PAA5 | BHK-21/C13 | plaque count | 0.12 µM
O=c1[nH]c(=O)n([C@H]2C[C@H](O)[C@@H](CO)O2)cc1/C=C/I | KOS | HSF | cytopathic effect | 0.02 µg/mL
CC(=O)OCCOCN1C(=O)C=CN(COCCO)S1(=O)=O | B206 (TK-) | E6SM | - | >400 µg/mL
N#CC1=CSc2nnc(-c3cn(-c4ccccc4)nc3-c3ccccc3)n2N=C1N | KOS (TK-) | HEL | cytopathic effect | >80 µg/mL
CCc1cn([C@@H]2O[C@H](CO)[C@@H](O)[C@@H]2O)c(=S)[nH]c1=O | KOS (TK+) | RPMI8226 | cytopathic effect | 0.58 µM
c1ccc(C2=Nn3c(nnc3-c3cn(-c4ccccc4)nc3-c3ccccc3)SC2)cc1 | KOS | HEL | cytopathic effect | >3.2 µg/mL
NC1=CC(N)=NS(=O)(=O)N1COCCO | VMW1837 (TK-) | E6SM | - | >400 µg/mL
O=c1[nH]c(=S)n([C@@H]2O[C@H](CO)[C@@H](O)[C@@H]2O)cc1CCO | KOS (TK+) | RPMI8226 | cytopathic effect | 118.2 µM
CC(=O)OCCOCN1C(C)=CC(N)=[N+](c2ccccc2)S1(=O)=O | KOS | E6SM | - | >400 µg/mL
O=c1[nH]c(=O)n([C@H]2C[C@H](O)[C@@H](CO)O2)cc1I | KOS | HSF | cytopathic effect | 0.4 µg/mL

Repeating the final 4 entries:

structure,strain or isolate,cells,read by,result
NC1=CC(N)=NS(=O)(=O)N1COCCO,VMW1837 (TK-),E6SM,-,>400 µg/mL
O=c1[nH]c(=S)n([C@@H]2O[C@H](CO)[C@@H](O)[C@@H]2O)cc1CCO,KOS (TK+),RPMI8226,cytopathic effect,118.2 µM
CC(=O)OCCOCN1C(C)=CC(N)=[N+](c2ccccc2)S1(=O)=O,KOS,E6SM,-,>400 µg/mL
O=c1[nH]c(=O)n([C@H]2C[C@H](O)[C@@H](CO)O2)cc1I,KOS,HSF,cytopathic effect,0.4 µg/mL

Blank or dashed fields: not listed here. Lines come from different laboratories, so protocols vary.